Compound potency records, mixed from different reports. Data source: NIAID ChemDB in PubChem.

Shared fields: tests in culture; species: HIV-1; read-out: EC95

Two numbers with a dash give a range or band. ECn: concentration that inhibits the pathogen or its effect by n%. Neighbouring rows are from separate reports. Blank or dashed fields: not listed here.

smiles | strain or isolate | mutations | cells | method | value
Cc1cc(C)c(-n2nnnc2SCC(=O)Nc2ccc(Cl)cc2F)c(C)c1 |  |  | MT-4 | p24 | <10 µM
CC(C)CN(C[C@@H](O)[C@H](Cc1ccccc1)NC(=O)[C@H](CC(N)=O)NC(=O)c1ccc2ccccc2n1)C(=O)NC(C)(C)C | NL4-3 | PR-M46I V82T I84V | MT-4 | p24 | 0.8 µM
Cc1ccnc2c1NC(=O)c1cccnc1N2C1CC1 |  |  | MT-2 | syncytia | 0.004–0.09 µM
Nc1ccn([C@H]2CC[C@@H](CO)O2)c(=O)n1 | RF |  | CEM + CEM-SS | cytopathic effect / MTT | 142 µM
Cc1cc(C)c(-n2nnnc2SCC(=O)Nc2ccccc2Br)c(C)c1 |  |  | MT-4 | p24 | <10 µM
CCc1cc(NCc2nc3c(C)ccc(C)c3o2)c(=O)[nH]c1C | IIIB |  | H9 | p24 | 0.15 µM
Cc1cn([C@H]2C[C@H](N=[N+]=[N-])[C@@H](CO)O2)c(=O)[nH]c1=O | IIIB |  | MT-2 | p24 | 0.0695 µg/mL
Cc1cn([C@H]2C[C@H](N=[N+]=[N-])[C@@H](CO)O2)c(=O)[nH]c1=O | IIIB |  | H9 | p24 / ELISA | 20 µM
CCCN(C(=O)NCc1ccccc1)C1CCN(CCC(CN(C)S(=O)(=O)c2ccccc2)c2ccccc2)CC1 | YU2 |  | PBMC | p24 | 3 µM
CN(CC(C)(CCN1CCC(N(CC(O)CO)C(=O)OCc2ccccc2)CC1)c1ccccc1)S(=O)(=O)c1ccccc1 | YU-2 (M-tropic) |  | PBMC | p24 | >6.3 µM
CC(C)(C)NC(=O)[C@@H]1CN(Cc2cccnc2)CCN1C[C@@H](O)C[C@@H](Cc1cccnc1)C(=O)N[C@H]1c2ccccc2C[C@H]1O | IIIB |  | H9 | p24 | >0.2 µM
CC(C)(c1ncc(-c2ccc(F)cc2)o1)N1CCN(C[C@@H](O)C[C@@H](Cc2nnc(-c3ccccc3)o2)C(=O)N[C@H]2c3ccccc3OC[C@H]2O)[C@H](C(=O)NCC(F)(F)F)C1 | Q-60 Clinical isolate | PR-L10I N37S R41K M46I I54V I62V L63P A71V V77I V82A L90M I93L | MT-4 | p24 | 0.016 µM
Cc1ccnc2c1NC(=O)c1cccnc1N2C1CC1 |  | RT-D67N K70R T215Y K219Q A98G | MT-4 |  | 0.4 µM
Cc1cc(C)c(-n2nnnc2SCC(=O)Nc2ccc([N+](=O)[O-])cc2Cl)c(C)c1 |  |  | MT-4 | p24 | <10 µM
Cc1nnc(C[C@H](C[C@H](O)CN2CCN(Cc3ccc(-c4ccc(Cl)cc4)o3)C[C@H]2C(=O)NCC(F)(F)F)C(=O)N[C@H]2c3ccccc3OC[C@H]2O)o1 | NL4-3 WT |  | MT-4 | p24 | 0.063 µM
CCCN(C(=O)OCc1ccccc1)C1CCN(CCC(CN(C)S(=O)(=O)c2ccccc2)c2ccccc2)CC1 | YU-2 (M-tropic) |  | PBMC | p24 | 12.5 µM
O=C1N(Cc2ccc(CO)cc2)[C@H](Cc2ccccc2)[C@H](O)[C@@H](O)[C@@H](Cc2ccccc2)N1Cc1ccc(CO)cc1 | NL4-3 | PR-M46I L63P | MT-4 | p24 | 0.4 µM
CCCN(C(=O)OCc1ccccc1)C1CCN(CC[C@](C)(CN(C)S(=O)(=O)c2ccccc2)c2ccccc2)CC1 | YU-2 (M-tropic) |  | PBMC | p24 | ~0.06 µM
O=C(CSc1nnnn1-c1cccc(Cl)c1Cl)Nc1ccccc1Cl |  |  | MT-4 | p24 | <10 µM
C=CCN(C(=O)OCc1ccccc1)C1CCN(CC[C@](CO)(CN(C)S(=O)(=O)c2ccccc2)c2ccccc2)CC1 | YU-2 (M-tropic) |  | PBMC | p24 | ~0.055 µM
CC(C)(C)NC(=O)[C@@H]1CN(C(C)(C)c2cc3cnccc3o2)CCN1C[C@@H](O)C[C@@H](Cc1ccccc1)C(=O)N[C@H]1c2ccccc2C[C@H]1O | V-18C(PR-L10I M36I S37D M46I R57K LK63P A71V G73S I84V L90M I93L) | PR-L10I M36I S37D M46I R57K LK63P A71V G73S I84V L90M I93L |  |  | >1 µM
O=C(NCc1ccc(F)cc1)c1nc(N2CCCCS2(=O)=O)c2cccnc2c1O | BaL |  | Macrophage | p24 | 0.104 µM
CCN(C(=O)NC)C1CCN(CCC(CN(C)S(=O)(=O)c2ccccc2)c2ccccc2)CC1 | YU2 |  | PBMC | p24 | 0.12 µM
CCc1cc(CCc2nc3ccccc3o2)c(=S)[nH]c1C | A17 | RT-K103N Y181C | H9 | p24 | 25 µM
C=CCN(C(=O)OCc1ccc([N+](=O)[O-])cc1)C1CCN(CC[C@](C)(CN(C)S(=O)(=O)c2ccccc2)c2ccccc2)CC1 | YU-2 (M-tropic) |  | PBMC | p24 | ≤0.008 µM
Cc1cc(C)c(-n2nnnc2SCC(=O)Nc2ccc(S(N)(=O)=O)cc2)c(C)c1 |  |  | MT-4 | p24 | <10 µM
Cc1cc(SC2=C(O)C[C@@](CCc3ccc(O)cc3)(c3ccccc3)OC2=O)c(C(C)(C)C)cc1CO |  |  | CEM | cytopathic effect / XTT | 7.5 µM
C=CCN(C(=O)OCc1ccc([N+](=O)[O-])cc1)C1CCN(CC[C@H](CN(C)S(=O)(=O)c2ccccc2)c2ccccc2)CC1 | YU2 |  | PBMC | p24 | 0.2 µM
Nc1ccn([C@H]2CC[C@@H](CO)O2)c(=O)n1 | RF |  | CEM + CEM-SS | cytopathic effect / MTT | 142 µM
CCc1cc(CCc2nc3ccccc3o2)c(=O)[nH]c1C | A17 | RT-K103N Y181C | H9 | p24 | 100 µM

A second listing of 4 rows from above:

smiles,strain or isolate,mutations,cells,method,value
CCCN(C(=O)NCc1ccccc1)C1CCN(CCC(CN(C)S(=O)(=O)c2ccccc2)c2ccccc2)CC1,YU2,,PBMC,p24,3 µM
Nc1ccn([C@H]2CC[C@@H](CO)O2)c(=O)n1,RF,,CEM + CEM-SS,cytopathic effect / MTT,142 µM
Nc1ccn([C@H]2CC[C@@H](CO)O2)c(=O)n1,RF,,CEM + CEM-SS,cytopathic effect / MTT,142 µM
Cc1cn([C@H]2C[C@H](N=[N+]=[N-])[C@@H](CO)O2)c(=O)[nH]c1=O,IIIB,,MT-2,p24,0.0695 µg/mL